From patent publication US20090270431A1, “Cyclopentenol Nucleoside Compounds Intermediates for their Synthesis and Methods of Treating Viral Infections” (THE UNIVERSITY OF GEORGIA RESEARCH FOUNDATION, priority 2005, published 2009)

Key:
[1] = system: HCV RNA replicon; assay: HCV RNA replicon assay; assay type: cell-based, hepatitis C virus (HCV); conditions: for SI value: ratio IC50 / EC50
Experimental: A number of […] 7-deazaneplanocin compounds were tested in vitro to determine activity against hepatitis C virus (HCV).

[2] = system: SARS virus; assay type: cell-based; conditions: against SARS virus
[3] = system: Hepatitis B Virus; assay: in vitro anti-HBV activity, VIR (extracellular virion HBV DNA); assay type: cell-based
Experimental: (§1) In the first biological experiment, a number of 7-deazaneplanocin compounds were tested in vitro to determine activity against hepatitis B virus (HBV).

[4] = system: Hepatitis B Virus; assay: in vitro anti-HBV activity, RI (intracellular HBV DNA replication intermediates); assay type: cell-based; conditions: SI = CC50/EC90
Experimental: as §1

[5] = system: Cowpox; assay type: cell-based, cowpox virus; conditions: CPE, HFF Cells, SI = CC50/IC50
[6] = system: Vaccinia; assay type: cell-based, vaccinia virus; conditions: VV; CPE; HFF Cells; SI = CC50/IC50
[7] = system: SARS; assay type: cell-based; conditions: Vero 76, SI = CC50/IC50
[8] = system: RSV A; assay: antiviral assay, RSV A in MA-104; assay type: cell-based, respiratory syncytial virus A; conditions: SI = CC50/IC50
[9] = system: Rhinovirus; assay: antiviral assay, Rhinovirus in HeLa Ohio-1; assay type: cell-based; conditions: RV, HO-1, SI = CC50/IC50
[10] = system: PIV; assay: antiviral assay, PIV in MA-104; assay type: cell-based, parainfluenza virus; conditions: SI = CC50/IC50
[11] = system: Measles; assay: antiviral assay, Measles in CV-1; assay type: cell-based; conditions: SI = CC50/IC50
[12] = system: Flu A (H1N1); assay type: cell-based; conditions: MDCK, SI = CC50/IC50
[13] = system: Flu A (H3N2); assay type: cell-based; conditions: MDCK, SI = CC50/IC50
[14] = system: Flu A (H5N1); assay type: cell-based; conditions: MDCK, SI = CC50/IC50
[15] = system: Yellow Fever; assay type: cell-based; conditions: YF, Vero, SI = CC50/IC50
[16] = system: Flu B; assay type: cell-based; conditions: MDCK, SI = CC50/IC50
[17] = system: Dengue; assay: antiviral assay, Dengue in Vero; assay type: cell-based; conditions: SI = CC50/IC50

`Nc1ncnc2c1c(I)cn2[C@@H]1C=C(CO)C(O)C1O` (stereo partly shown) gave an SI value ([1]; HT @ 5 μM) greater than 1.63 and an SI value ([1]; HT @ 100 μM) greater than 6.99.

With `C#Cc1cn([C@@H]2C=C(CO)C(O)C2O)c2ncnc(N)c12` (stereo partly shown) [drawing 37] the SI value ([1]; HT @ 20 μM) was greater than 1.63 and the SI value ([1]; HT @ 100 μM) was 2.44.

Molecule “1-(4,5-Dihydroxy-3-hydroxymethyl-cyclopenten-2-enyl)-1H-[1,2,4]triazole-3-carboxylic acid amide [Compound 17a]” has an SI [2] greater than 4.8.

Work on `NC(=O)c1cn([C@@H]2C=C(CO)C(O)C2O)c2ncnc(N)c12` (stereo partly shown) yielded an SI value ([1]; HT not given) of 6.38.

In the case of `Nc1ncnc2c1c(I)cn2[C@@H]1C=C(CO)[C@@H](O)[C@H]1O` [Compound 13, 7-Deaza-7-Iodo Neplanocin A], the SI ([3]; SI = CC50/EC90) is reported as greater than 167 and the SI [4] is reported as greater than 51.

In the case of `Nc1ncnc2c1c(Br)cn2[C@@H]1C=C(CO)C(O)C1O` (stereo partly shown), the SI value ([1]; HT @ 20 μM) is reported as greater than 1.91 and the SI value ([1]; HT @ 100 μM) is reported as 2.5.

In the case of `Nc1nccc2c1ncn2[C@@H]1C=C(CO)[C@@H](O)[C@H]1O` [Compound 3-DNPA, (−)-1-[(1R,4R,5S)-3-(Hydroxymethyl)-4,5-dihydroxy-2-cyclopenten-1-yl]-4-aminoimidazo[4,5-c]pyridine Hydrochloride], the SI [5] is reported as greater than 300, the SI [6] is reported as greater than 300 and the SI ([3]; HBV, Huh7 ET, SI = CC50/IC50) is reported as 178. It also gave an SI ([1]; HCV, HRR, Huh7 ET, SI = CC50/IC50) of 0.89, an SI ([7]; NR) of 0.7 and an SI ([7]; Visual) of 10. The SI ([8]; NR) was greater than 100, the SI ([8]; Visual) was greater than 100 and the SI ([9]; NR) was 4. For the same molecule, the SI ([9]; Visual) was 32, the SI ([10]; NR) was greater than 100 and the SI ([10]; Visual) was greater than 100. It also gave an SI ([11]; NR) of 12, an SI ([11]; Visual) of 10 and an SI ([12]; NR) of 25. The SI ([12]; Visual) was greater than 100, the SI ([13]; NR) was greater than 100 and the SI ([13]; Visual) was greater than 100. The SI ([14]; NR) was greater than 100, the SI ([14]; Visual) was greater than 100 and the SI ([15]; NR) was greater than 100. The SI ([15]; Visual) was greater than 100.

Molecule `NC(=O)c1cn(C2C=C(CO)C(O)C2O)nn1` (stereo not shown) [Compound 17c, 1-(4,5-Dihydroxy-3-hydroxymethyl-cyclopenten-2-enyl)-1H-[1,2,3]triazole-4-carboxylic acid amide] has an SI [2] greater than 2.1.

With `C#Cc1cn([C@@H]2C=C(CO)C(O)C2O)c2ncnc(N)c12` (stereo partly shown) [Compound 27, 7-Deaza-7-Acetylene-Neplanocin A] the SI ([3]; SI = CC50/EC90) was greater than 188 and the SI [4] was greater than 40.

For `C=Cc1cn([C@@H]2C=C(CO)[C@H](O)C2O)c2ncnc(N)c12` (stereo partly shown) [Compound 25, 7-Deaza-7-Vinyl-Substituted Neplanocin A], the SI ([3]; SI = CC50/EC90) was greater than 33 and the SI [4] was greater than 11.

With `Nc1ncnc2c1c(Cl)cn2[C@@H]1C=C(CO)C(O)C1O` (stereo partly shown) the SI value ([1]; HT @ 100 μM) was greater than 3.48.

`Nc1nccc2ncn([C@@H]3C=C(CO)[C@@H](O)[C@H]3O)c12` [Compound N7-3-DNPA] showed an SI [5] greater than 300, an SI [6] greater than 300 and an SI ([3]; HBV, Huh7 ET, SI = CC50/IC50) greater than 300. The SI ([7]; NR) was greater than 100, the SI ([7]; Visual) was 51 and the SI ([12]; NR) was 32. The SI ([12]; Visual) was 32, the SI ([13]; NR) was 32 and the SI ([13]; Visual) was 32. For the same molecule, the SI ([14]; NR) was greater than 100, the SI ([14]; Visual) was greater than 100 and the SI ([16]; NR) was greater than 100. It also gave an SI ([16]; Visual) greater than 100, an SI ([15]; NR) greater than 100 and an SI ([15]; Visual) greater than 100. For the same molecule, the SI ([17]; NR) was greater than 100 and the SI ([17]; Visual) was greater than 100.

Structures can show the parent of a compound that is named as a salt. Where two headings read alike, the source gives them in different places.
